The supplement of paper PMC12637763
Changes are numbered by the printed parent chain. The list shows a part of the results. Env chains of viruses from a treatment-interruption trial, translated from the printed DNA. IC50 / IC80 of two broadly neutralizing antibodies; lower = more sensitive virus; >50 µg/ml means not reached and <0.001 µg/ml is below the lowest dose. No active / inactive call.

B1: HIV-1 Env, rebound clone, placebo arm (protein)
chain: MIVMGMKRNWQQWWRGGILLLGMLMMICSAEDNAWVTVYYGVPVWREANVTLFCASDAKAYDTEIHNVWATHACVPTDPSPQEIKLENVTENFNMWKNDMVEQMHEDIISLWDQSLKPCVKLTPLCVTLNCTDYLGSNATNSTSGNNGTISNNITIEDSEKGEIKNCSFNVTTGIRDKMNKEYALLYKTDLVSIDNDNTSYRLISCNTSVITQACPKVTFEPIPIHYCAPAGFAILKCKDKKFNGTGPCKNVSTVQCTHGIRPVVSTQLLLNGSLAEEDVVIRSANFTNNAKVIIVQLNETVEINCTRPNNNTRKGINIGPGRAWYTIKDIVGDIRQAHCNISRPKWNRALEKIVEKLREQFGVNKTIVFNQSSGGDPEIVMHHFNCQGEFFYCNTTGLFNTRWNDTWENYTAGQGNNETITLPCRIRQIVNLWQEVGKAMYAPPIRGYINCSSNITGLLLVRDGGIKNSTNDTDNNTEIFRPGGGDMRDNWRSELYKYKVVQVEPVGIAPTRAKRRVVQREKRAVTLGAMFLGFLGTAGSTMGAASLTLTVQVRQLLSGIVQQQNNLLRAIEAQQHLLQLTVWGIKQLQARVLAVERYLRDQQILGIWGCSGKLICTTAVPWNTSWSNKSVDHIWGNMTWMQWEREIENYTGVIYKLLEESQNQQEKNEQDLLELDKWASLWTWFDITHWLWYIRLFIMIVGGLIGLRIVFAVFSLVNRVRQGYSPLSFQTHLPAPRGPDRPEGIEEEGGEPDRGRSVRLVNGFLALIWDDLRSLCLFSYHRLRDLLLIVTRIVELLGRRGWEAIKYLWNLLQYWSQELKNSAVSLLNAFAIAVAEGTDRVIEIIQGAFRAIIHIPRRIRQGLERSLL
B2: HIV-1 Env, rebound clone, placebo arm (protein)
chain: B1 chain with I65V, T402G, R403T
B3: HIV-1 Env, rebound clone, placebo arm (protein)
chain: MRVRGILRNYPQWWIWGILGFWMVMICNVVGNLWVTVYYGVPVWKDAKTTLFCASDAKAYDKEVHNVWATHACVPTDPNPQELVLGNVTENFNMWKNDMVDQMHEDVISLWDQSLKPCVKLTPLCVTLECVNANVTTVNVTNENINGTEEIKNCTFNATTEINDRKTREHALFYKLDIVPLETNHSSTKYRLINCNTSAVTQACPKVNFDPIPIHYCAPAGYAILKCNNKTFNGTGPCQNVSTVQCTHGIKPVVSTQLLLNGSLAEGEIIIRSENLTNNAKTIIVHLNDSIEITCIRPNNNTRKSIRIGPGQTFYATGDIIGDIRQAHCNISRNKWNQTLQRVSKKLGEHFPNATTIKFTSPSGGDLEIITHSFNCRGEFFYCNTSQLFNRTYMPNDTGSDSTGNSSDITDITIPCRIKQFINMWQGVGRAIYAPPIAGNITCKSNITGILLTRDGGRTNDNSTETFRPGGGDMRDNWRSELYKYKVVEIKPLGIAPTEAKRRVVAREKRAAGLGAVIFGFLGAAGSTMGAASMALTVQARQLLSGIVQQQSNLLRAIEAQQHMLQLTVWGIKQLQARVLAVERYLKDQRLLGIWGCSGKLICPTTVPWNSSWSNRSLADIWENMTWMQWDKEIDNYTNIIYSLLEESQNQQERNEQELLALDSWNSLWTWFSISNWLWYIKIFIMIVGGLIGLRIIFAVLSIVNRVRQGYSPLSFQTLTPNPREPDRLRGIEEEGGEQDRDRSIRLVNGFLALVWEDLRSLCLFSYHRLRDFILVTARAVELLGRSSYKGLQRGWEALKYLGSLVQYWGLELKKSAISLFDTLAIVIAGWTDRVIELGQRIGRTILHIPRRIRQGFERALL

target: antibody 10-1074; experiment: neutralization IC50; higher = virus less sensitive to the antibody
Procedure: (§1)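 Pseudovirus bearing the Env chain mixed with antibody, from 50 µg/ml in fivefold dilutions, on TZM-bl reporter cells, in duplicate.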

B1 and B2 are within 1.5-fold of each other in “neutralization IC50” value: 0.258 µg/mL for the first, 0.238 µg/mL for the second.

For B3, the “neutralization IC50” value was 0.011 µg/mL.

target: antibody 3BNC117; experiment: as above
Procedure: as §1

B1 and B2 are within 1.5-fold of each other in “neutralization IC50” value: 0.285 µg/mL for the first, 0.251 µg/mL for the second.

B3 was tested, and the “neutralization IC50” value was 0.034 µg/mL.

target: antibody 10-1074; experiment: neutralization IC80; higher = virus less sensitive to the antibody
Procedure: as §1

B1 and B2 are within 1.5-fold of each other in “neutralization IC80” value: 0.93 µg/mL for the first, 0.857 µg/mL for the second.

For B3, the “neutralization IC80” value was 0.027 µg/mL.

target: antibody 3BNC117; experiment: as above
Procedure: as §1

First: B1
Second: B2
The “neutralization IC80” value of the first is 1.9-fold higher: 1.8 µg/mL for the first, 0.938 µg/mL for the second.

B3 was tested, and the “neutralization IC80” value was 0.099 µg/mL.
